Data source: PubChem BioAssay AID504761 (Drosophila RNAi Screening Center, 2011)
In all, the deposit lists about 22,000 reagents; this is a random part of those with a known target gene and a result. Of all reagents, 116 (0.52%) are marked active. 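Calls depend on retest data that are not deposited; infection was ranked per plate without normalising between plates; the unit of the infection score is not given.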 Raw values vary from plate to plate and are shown uncorrected. Names joined by + are all predicted targets of the reagent. Not stated in the record: the amount of reagent, the time to read-out.

Purpose: 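Genome-wide fly cell screen for genes dengue virus requires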 (primary screen)
System: D.Mel-2 cells from Drosophila
Knock-down reagent: long dsRNA against Drosophila genes
Challenge: infection with dengue virus type 2; dose and infection time not stated
Detection: 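Per well on two replicate plates, imaging gave the percent of cells positive for viral envelope protein, ranked by infection, and a nuclear count of cells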
Reading the numbers: infection score: higher = more virus-infected cells; cell count: higher = more cells in the well
Hit rule: 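Very low infection ranking in both replicate wells (chance probability at most 0.065), then a retest showing infection dropped 1.5-fold or more at p below 0.05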
Calls: active = confirmed: knock-down lowers infection; inactive = not picked or not confirmed

target gene	PubChem SID	infection score, replicate 1	infection score, replicate 2	cell count, replicate 1	cell count, replicate 2	activity call
GstT1 (Glutathione S transferase T1)	SID104186035	6.81	17.6	6853	6430	inactive
CG34436	SID104194956	0.7	1.39	6155	6749	inactive
Pfas (Phosphoribosylformylglycinamidine synthase)	SID104183272	6.44	5.37	6305	6644	inactive
CG4045	SID104198310	6.79	9.83	471	6440	inactive
mRRF2 (mitochondrial ribosome recycling factor 2)	SID104195935	8.27	0.74	5576	407	inactive
Srp72 (Signal recognition particle 72)	SID104195592	3.71	4.76	5978	6738	inactive
Srp72 (Signal recognition particle 72)	SID104206882	6.28	6.4	5825	4701	inactive
Glo1 (Glyoxalase 1)	SID104186449	2.48	9.38	6570	6398	inactive
CG12766	SID104188087	0.71	3.89	6652	6168	inactive
CG8939	SID104199919	4.91	5.47	6296	7188	inactive
mtsh (mitoshell)	SID104182862	2.94	23.1	5716	3506	inactive
CG15890	SID104199529	13.2	18.5	6119	6291	inactive
Sec22 (Secretory 22)	SID104198330	5.68	15.2	6425	6087	inactive
Sec22 (Secretory 22)	SID104207841	7.08		5860	255	inactive
CG6484	SID104186783	12.2	13.6	3555	4099	inactive
CG6484	SID104206631	17.8	28.1	6412	3743	inactive
AGO3 (Argonaute 3)	SID104201152	1.48	0.78	6066	6381	inactive
CG6333	SID104190418	8.01	9.84	5842	5792	inactive
Cpr66D (Cuticular protein 66D)	SID104202535	0.86	11.9	5693	6149	inactive
Cpr66D (Cuticular protein 66D)	SID104204469	2.45	8.93	6082	6068	inactive
CG4631	SID104182558	11.4	18.3	6138	5806	inactive
CG4631	SID104201733	6.64	3.27	6263	6233	inactive
cal1 (chromosome alignment defect 1)	SID104195517	4.29	12.6	5615	5740	inactive
Bap170 (Brahma associated protein 170kD)	SID104184756	15.5	34.3	6624	6133	inactive
Bap170 (Brahma associated protein 170kD)	SID104201476	20.2	8.11	6535	7049	inactive
Bap170 (Brahma associated protein 170kD)	SID104206103	36.9	32.4	6010	6157	inactive
CG8197	SID104186897	5.97	4.6	5743	6263	inactive
CG8152	SID104186875	16.7	26	5640	4757	inactive
CG5787	SID104182687	2.87	5.32	6166	5398	inactive
CG5787	SID104207275	1.08		463	372	inactive
Afti (Aftiphilin)	SID104196232	8.34	12.1	5419	6357	inactive
Afti (Aftiphilin)	SID104207816	21.7	11.4	2702	6214	inactive
defl (deflated)	SID104190092	3.35	2.24	4859	5222	inactive
Rrp46	SID104195329	8.78	26.1	7059	5909	inactive
P5CS (Delta[1]-pyrroline-5-carboxylate synthase)	SID104191623	1.69	10.3	6702	6176	inactive
P5CS (Delta[1]-pyrroline-5-carboxylate synthase)	SID104191624	3.71	4.76	6625	6279	inactive
CG7567	SID104196050	2.29	1.71	6693	643	inactive
CG13877 + pyx	SID104188139	18.5		5792	431	inactive
CG9400	SID104199974	3.39	2.83	5986	6113	inactive
Vtld + CG42529	SID104189894	3.06	7.24	6104	6506	inactive
Brd7-9 (Bromodomain containing 7/9)	SID104182809	6.47	4.5	6384	5960	inactive
Brd7-9 (Bromodomain containing 7/9)	SID104208136			363	361	inactive
tara (taranis)	SID104202371	0.78	1.04	6418	6644	inactive
tara (taranis)	SID104208208	16.3	24	2545	4966	inactive
CG14711 + Zaf1	SID104194726	2.48	4.06	6291	5714	inactive
CG14711 + Zaf1	SID104202974	6.27	13.4	6359	6005	inactive
Wdr37 (WD repeat domain 37)	SID104194292	5.74	4.58	5875	6467	inactive
CysRS (Cysteinyl-tRNA synthetase)	SID104185740	4.49	4.69	5610	5763	inactive
CysRS (Cysteinyl-tRNA synthetase)	SID104205164	6.29	7.95	6199	5559	inactive
Or42b (Odorant receptor 42b)	SID104184705	12.3	15	5753	6841	inactive
Or42b (Odorant receptor 42b)	SID104205817	5.65	13.1	6651	6299	inactive
Gnf1 (Germ line transcription factor 1)	SID104192143	5.71	11.3	5551	5764	inactive
Gnf1 (Germ line transcription factor 1)	SID104205226	1.54	1.4	6355	6409	inactive
oaf (out at first)	SID104180623	2.98	1.48	6269	6937	inactive
botv	SID104185741	3.96	12.5	6687	6206	inactive
botv	SID104206578	19.7	20.5	3964	3552	inactive
Zyx (Zyxin)	SID104196978	8.34	2.94	5913	6119	inactive
Synj (Synaptojanin)	SID104184318	18.7	35.2	6167	5411	inactive
CG14115	SID104189910	1.84	3.94	6237	6290	inactive
Stam (Signal transducing adaptor molecule)	SID104183236	11.3	10.5	5362	5178	inactive
Stam (Signal transducing adaptor molecule)	SID104204151	1.49	3.51	5566	5790	inactive
Nthl1 (Nth-like DNA glycosylase 1)	SID104182975	5.42	2.88	5906	6658	inactive
enok (enoki mushroom)	SID104183888	10.3	26.7	6277	5223	inactive
CG33160	SID104187989	0.94	4.34	6400	5718	inactive
CG33160	SID104205314	4.83	1.8	6311	6598	inactive
ATPsynC (ATP synthase, subunit C)	SID104195028	2.86	3.43	5204	5622	inactive
CG18324	SID104186513	2.91	17.6	6213	6238	inactive
CG18324	SID104205144	0.93	7.86	6030	5458	inactive
Flacc (Fl(2)d-associated complex component)	SID104199832	3.86	8.27	6004	5819	inactive
Flacc (Fl(2)d-associated complex component)	SID104204046	4.77	3.1	6226	5903	inactive
CG12483	SID104188070	3.31	4.29	6553	6880	inactive
Spn28F (Serpin 28F)	SID104183407	3.53	16.2	6111	4436	inactive
Spn28F (Serpin 28F)	SID104204303	2.8	1.14	6252	6379	inactive
Hexo1 (Hexosaminidase 1)	SID104188455	2.22	0.98	6172	6014	inactive

In a second layout: results already given
target gene,PubChem SID,"infection score, replicate 1","infection score, replicate 2","cell count, replicate 1","cell count, replicate 2",activity call
CG6333,SID104190418,8.01,9.84,5842,5792,inactive
Cpr66D (Cuticular protein 66D),SID104202535,0.86,11.9,5693,6149,inactive
Cpr66D (Cuticular protein 66D),SID104204469,2.45,8.93,6082,6068,inactive
CG4631,SID104182558,11.4,18.3,6138,5806,inactive
CG4631,SID104201733,6.64,3.27,6263,6233,inactive
cal1 (chromosome alignment defect 1),SID104195517,4.29,12.6,5615,5740,inactive
Bap170 (Brahma associated protein 170kD),SID104184756,15.5,34.3,6624,6133,inactive
Bap170 (Brahma associated protein 170kD),SID104201476,20.2,8.11,6535,7049,inactive
Bap170 (Brahma associated protein 170kD),SID104206103,36.9,32.4,6010,6157,inactive
CG8197,SID104186897,5.97,4.6,5743,6263,inactive
